A mixed list of measured activities; the numbers were collected in NIAID ChemDB.

All rows: toxicity to cultured cells; cells: PBMC; read by: MTT; measure: CC50

Neighbouring rows are from separate reports. CCn is the concentration with n% toxicity to the cells.

{"structure": "COC(=O)c1cc(O)c(O)c(O)c1", "value": "1230 µM"}
{"structure": "CCCCCCCCCCCCCCCCOCCCOP(=O)(NCC(=O)OC)OC[C@@H]1OC[C@H](n2cc(C)c(=O)[nH]c2=O)O1", "value": ">100 µM"}
{"structure": "CCCCCCCCCCCCCCOC(=O)c1cc(O)c(O)c(O)c1", "value": "1800 µM"}
{"structure": "Nc1ncnc2c1ncn2[C@H]1C=C(F)[C@@](CO)(OCP(=O)(O)O)C1", "value": "≥10 µM"}
{"structure": "CCCCCCCCOC(=O)c1cc(O)c(O)c(O)c1", "value": "1835 µM"}
{"structure": "O=C(O)CN(CCCN(CCN(CC(=O)O)CC(=O)O)Cc1cnc2c(O)cccc2c1)CC(=O)O", "value": ">50 µM"}
{"structure": "COC(=O)[C@H](C)NP(=O)(OC[C@@H]1OC[C@H](n2cc(C)c(=O)[nH]c2=O)O1)Oc1ccc(F)cc1", "value": ">100 µM"}
{"structure": "Oc1ccc(/C=C/c2cc(O)cc(O)c2)cc1", "value": ">10 µM"}
{"structure": "Nc1nc(N)c2ncn([C@H]3CO[C@@H](CO)O3)c2n1", "value": ">100 µM"}
{"structure": "COc1ccc(C(=O)/C=C/c2cc3ccc(Cl)c(C)c3nc2Cl)cc1OC", "value": "40.01 µM"}
{"structure": "C#C[C@]1(OCP(=O)(O)O)C[C@@H](n2cnc3c(N)ncnc32)C=C1F", "value": "≥10 µM"}
{"structure": "COC(=O)[C@@H](Cc1ccccc1)NP(=O)(OC[C@@H]1OC[C@H](n2cc(C)c(=O)[nH]c2=O)O1)Oc1ccccc1", "value": "40.1 µM"}
{"structure": "CC(C)OC(=O)OCOP(=O)(CO[C@H](C)Cn1cnc2c(N)ncnc21)OCOC(=O)OC(C)C", "value": "17.34 µM"}
{"structure": "CCOC(=O)[C@H](C)NP(=O)(OC[C@@H]1OC[C@H](n2cnc3c(=O)[nH]c(N)nc32)O1)Oc1ccccc1", "value": ">100 µM"}
{"structure": "O=c1[nH]cnc2c1ncn2[C@@H]1C[C@H](CO)C=C1F", "value": ">100 µM"}
{"structure": "CCCCCCCCCCCCOC(=O)c1cc(O)c(O)c(O)c1", "value": "2200 µM"}
{"structure": "Cc1cn([C@H]2CO[C@@H](COP(=O)(N[C@@H](C)C(=O)OCc3ccccc3)Oc3ccccc3Cl)O2)c(=O)[nH]c1=O", "value": ">100 µM"}
{"structure": "Nc1ncnc2c1ncn2[C@@H]1C[C@H](CO)C=C1F", "value": ">100 µM"}
{"structure": "Cc1ccc(/C=C/c2cc3ccc(Cl)c(C)c3nc2Cl)s1", "value": "51.89 µM"}
{"structure": "COC(=O)[C@H](C)NP(=O)(OC[C@@H]1OC[C@H](n2cc(C)c(=O)[nH]c2=O)O1)Oc1ccc(Cl)cc1", "value": "78.4 µM"}
{"structure": "Nc1ncnc2c1ncn2[C@H]1C[C@@H](CO)C=C1F", "value": ">100 µM"}
{"structure": "C/C(=N\\NC(=O)c1ccccc1)c1cccc(/C(C)=N/NC(=O)c2ccccc2)n1", "value": "85.92 µM"}
{"structure": "Nc1ccn([C@H]2C[C@@H](CO)C=C2F)c(=O)n1", "value": ">100 µM"}
{"structure": "Cc1c(Cl)ccc2cc(/C=C/C(=O)c3cccc(Br)c3)c(Cl)nc12", "value": "34.01 µM"}
{"structure": "CCCc1ccc(OP(=O)(N[C@@H](C)C(=O)OC)OC[C@@H]2OC[C@H](n3cc(C)c(=O)[nH]c3=O)O2)cc1", "value": "25.6 µM"}
{"structure": "CCCCCCCOC(=O)c1cc(O)c(O)c(O)c1", "value": "1718 µM"}
{"structure": "CCOC(=O)[C@H](C)NP(=O)(OC[C@@H]1OC[C@H](n2cnc3c(Cl)nc(N)nc32)O1)Oc1ccccc1", "value": ">100 µM"}
{"structure": "COC(=O)C(C)(C)NP(=O)(OC[C@@H]1OC[C@H](n2cc(C)c(=O)[nH]c2=O)O1)Oc1ccccc1", "value": ">100 µM"}
{"structure": "CCCCCCCCCOC(=O)c1cc(O)c(O)c(O)c1", "value": "2120 µM"}

For reference, 2 entries again:

structure | value
CCCCCCCCCOC(=O)c1cc(O)c(O)c(O)c1 | 2120 µM
C/C(=N\NC(=O)c1ccccc1)c1cccc(/C(C)=N/NC(=O)c2ccccc2)n1 | 85.92 µM